Laboratory results published in patent publication US8273773B2 (priority 2008, dated 2012).
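Note: recombinant His-tagged enzyme from E. coli, radiolabeled nucleotide incorporation into acid-insoluble RNA read by scintillation after filtration, no-enzyme background subtracted, activity relative to positive control.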

Each compound was assayed against HCV polymerase (NS5B570n-Con1) (Hepatitis C virus genotype 1b, UniProt Q9WMX2). Details: read-out: IC50 HCV NS5B RNA Polymerase Assay; values without asterisk; 20 nM NS5B570n-Con1 enzyme, 20 nM cIRES RNA template.
`CC(C)(C)c1cc(/C=C/c2ccc(NS(C)(=O)=O)cc2)cc(-c2ccc[nH]c2=O)c1` [I-141, N-(4-{(E)-2-[3-tert-Butyl-5-(2-oxo-1,2-dihydro-pyridin-3-yl)-phenyl]-vinyl}-phenyl)-methanesulfonamide] gave an IC50 of 3 nM. For `COc1c(CCc2ccc(NS(C)(=O)=O)cc2)cc(-c2cc(Br)c[nH]c2=O)cc1C(C)(C)C`, the IC50 was 27 nM. Work on `COc1c(C(=O)c2ccc(CN)cc2)cc(-c2ccc[nH]c2=O)cc1C(C)(C)C` yielded an IC50 of 65 nM. `COc1c(CC(CN2CCCC2)c2ccc(NS(C)(=O)=O)cc2)cc(-c2ccc[nH]c2=O)cc1C(C)(C)C` (stereo not drawn) showed an IC50 of 47 nM. For `CC(C)(C)c1cc(CCC(=O)O)c(O)c(-c2ccc[nH]c2=O)c1`, the IC50 was 957 nM. In the case of `COc1c(C(=O)NCCc2cccnc2)cc(-c2ccc[nH]c2=O)cc1C(C)(C)C`, the IC50 is reported as 1050 nM. `CC(C)(C)c1cccc(-c2ccc[nH]c2=O)c1` gave an IC50 of 3960 nM.

Same assay, conditions: read-out: IC50 HCV NS5B RNA Polymerase Assay; values without asterisk; 20 nM NS5B570n-Con1 enzyme, 20 nM cIRES RNA template; tested form: formate
For `COc1c(C(=O)NC2CCCNC2)cc(-c2ccc[nH]c2=O)cc1C(C)(C)C` (stereo not drawn), the IC50 was 496 nM. For `COc1c(C(=O)NC2CCNCC2)cc(-c2ccc[nH]c2=O)cc1C(C)(C)C`, the IC50 was 129 nM.
